Drawing on publication PMC3767830, this text covers Km and kcat for 1 substance.

This data set deals with O=C(O)[C@@H]1CCCN1. Put plainly: purified protein. To be noted: 0-500 mM proline, 5 mM Tris-HCl pH 8.0, 8 mM MgCl2, 2 mM DTT, 20 μM FAD, 4 mM 2-AB, 30°C.

As to “GST-ProdhΔ21 (Cryphonectria parasitica EP155)”, the Km turned out to be 38.15 ± 3.523 mM and the kcat worked out at 0.022 ± 0.005 s⁻¹.
